{"source": "patent US9555076B2", "about": "“Neuregulin based methods and compositions for treating cardiovascular diseases” (Zensun (Shanghai) Science & Technology, Co., Ltd., priority 2002, dated 2017)", "molecules": {"B1": {"name": "rhNRG-1 β: Recombinant human neuregulin fragment of 61 amino acid (SEQ ID NO:4), 3 disulfide bonds, expressed in E. coli (protein, listed as Homo sapiens)", "chain": "SHLVKCAEKEKTFCVNGGECFMVKDLSNPSRYLCKCPNEFTGDRCQNYVMASFYKAEELYQ", "modifications": "disulfide (positions not given here)"}}, "system": "acute myocardial injury caused by viral (Coxsackie B3) infection in mice", "assay": "Myocardial pathologic score, mice infected with Coxsackie B3 virus", "assay_type": "in vivo, BALB/C mice", "design": "key: 0-4 score: 0 = 0%, 1 = 25%, 2 = 50%, 3 = 75%, 4 = 100% lesion area", "settings": "listed as Recombinant Human Neuregulin-1 βS177-Q237 for Injection", "method": "The survived mice were killed through dislocating the cervical spine, aseptic thoracotomy was performed and the heart extirpated, heart weight measured and put the myocardium into formaldehyde for fixation, embedded in paraffin, consecutive section made and pathologic examination performed, observed inflammatory cells infiltration of the myocardium, degeneration and necrosis. Based on the Principle of New Drug Evaluation Guideline, pathologic scoring criteria was defined as follow: • Score 0: lesion area accounting for 0%; • Score 1: lesion area accounting for 25%; • Score 2: lesion area accounting for 50%; • Score 3: lesion area accounting for 75%; • Score 4: lesion area accounting for 100%; • Scoring could be performed between score 1 and score 2 or between score 2 and score 3, e.g. when lesion area was 80% was scored as score 3.2, 7.3.3.4 Observation On Survival Of Mice", "data": [{"molecule": "B1", "values": [{"measurement": "Pathologic score Mean ± SD", "setting": "7.5 μg/kg iv qd × 5, (I)", "result": 1.5}, {"measurement": "Pathologic score Mean ± SD", "setting": "15 μg/kg iv qd × 5, (I)", "result": 0.7}, {"measurement": "Pathologic score Mean ± SD", "setting": "30 μg/kg iv qd × 5, (I)", "result": 0.56}]}]}
